# Reference: patent US10167299B2, “1-(3-aminopropyl) substituted cyclic amine compounds, preparation method therefor, and pharmaceutical compositions and uses thereof” (SHANGHAI INSTITUTE OF MATERIA MEDICA, CHINESE ACADEMY OF …, priority 2013, dated 2019)
# Tested on: HIV-1SF162 virus strain
# Assay: Inhibition activity on TZM-bl cells infected with HIV-1SF162
# Conditions: TZM-bl cells infected with HIV-1SF162, conclusion from Table 3
substance,measurement,value
"4-ethyl-N-[(1S)-3-[exo-3-(3-isopropyl-5-methyl-4H-1,2,4-triazol-4-yl)-8-azabicyclo[3.2.1]octane-8-yl]-1-(thiophen-3-yl)propyl]cyclopentane-1-carboxamide [Compound 20]","cytotoxicity in vitro and therapeutic index in words, versus positive control compound",comparable with the positive control compound
